Pooled drug test results. Numbers come from NIAID ChemDB, via PubChem.

Common to all: whole-cell or culture tests

Rows are shuffled and stem from different studies. MIC50, MIC90 and the like: level of inhibition, or share of isolates inhibited. ECn: concentration that inhibits the pathogen or its effect by n%. Blank or dashed fields: not listed here. Zone: diameter of growth inhibition. Percent inhibition refers to the dose given; in toxicity tests it is the harm to the cells.

compound | method | measure | dose | setting | organism | strain or isolate | result
CC[C@@H](CO)NCCN[C@@H](CC)CO | resazurin | MIC | - | 24 h | Mycobacterium bovis BCG | 1173P2 | 0.75 µg/mL
Cc1nn(-c2ccccc2)c2c1C(c1cn(-c3ccccc3)nc1-c1ccc(F)cc1)C1=C(NC(C)(c3cc(O)c(Cl)c(O)c3)NC1=O)O2 | agar diffusion / agar | MIC | - | - | Mycobacterium phlei | NCIM 2240 | 50 µg/mL
CCn1cc(C(=O)O)c(=O)c2cc(F)c(N3CC(C)NC(C)C3)nc21 | - | MIC | - | - | Mycobacterium fortuitum | ATCC 6841 | 0.5 µg/mL
C=CCN1C(=O)C2(C3=C(C(=O)c4ccccc4C3=O)C3CCCN32)c2ccccc21 | agar diffusion | zone | 50 µg/mL | - | Mycobacterium luteus | - | 9 mm
CCN1CCN(c2c(F)cc3c(=O)c(C(=O)O)cn(C4CC4)c3c2F)CC1 | - | MIC99 | - | - | Mycobacterium smegmatis | KD1990 (GYRA D95A) | 1.5 µg/mL
NC[C@H]1O[C@H](O[C@H]2[C@H](O)[C@@H](O[C@H]3O[C@H](CO)[C@@H](O)[C@H](N)[C@H]3O)[C@H](N)C[C@@H]2N)[C@H](O)[C@@H](O)[C@@H]1O | - | MIC | - | - | Mycobacterium avium complex | Isolate C-31 | ≥400 µg/mL
COc1c(N2CCNCC2)c(F)cc2c(=O)c(C(=O)O)cn(C3CC3)c12 | - | MIC99 | - | - | Mycobacterium smegmatis | KD1990 (GYRA D95A) | 0.31 µg/mL
O=c1c(O)c(-c2ccc(O)cc2O)oc2cc(O)cc(O)c12 | - | MIC | - | - | Mycobacterium phlei | - | >100 µg/mL
Cc1nn(-c2ccccc2)c2c1C(c1cn(-c3ccccc3)nc1-c1ccc(Cl)cc1)C1=C(NC(C)(c3cc(O)c(Cl)c(O)c3)NC1=O)O2 | agar diffusion / agar | zone | 0.1 mg/mL | - | Mycobacterium phlei | NCIM 2240 | 2.5 mm
N/C(=N\N=C\c1ccccc1Sc1ccc(Cl)cc1)c1ccccn1 | - | EC50 | - | - | Mycobacterium fortuitum | - | >100 µM
CN1CC2=C(C(=O)c3ccccc3C2=O)C12C(=O)Nc1ccc(Cl)cc12 | agar diffusion | zone | 50 µg/mL | - | Mycobacterium luteus | - | 12 mm
Cc1cc(-c2cc3c(cc2F)c(=O)c(C(=O)O)cn3C2CC2)cc(C)n1 | - | MIC50 | - | - | Mycoplasma hominis | 37 strains | 0.004 µg/mL
C#CC(CCCCC)OC(C)=O | resazurin | MIC | - | 24 h | Mycobacterium bovis BCG | 1173P2 | 125 µg/mL
COc1ccc(-c2nn(-c3ccccc3)cc2C2C3=C(NC(C)(c4cc(O)c(I)cc4Cl)NC3=O)Oc3c2c(C)nn3-c2ccccc2)cc1 | agar diffusion / agar | zone | 1 mg/mL | - | Mycobacterium phlei | NCIM 2240 | 8.8 mm
Nc1nc(N)c2c(n1)NC(c1ccccc1)CC(c1ccc3c(c1)OCO3)=N2 | MTT / broth dilution / absorbance | MIC | - | clinical isolate | Mycobacterium chelonae | MNT1407 | 32 µg/mL
N/C(=N\N=C\c1cccc2ccccc12)c1ccccn1 | - | inhibition | 1000 µM | - | Mycobacterium fortuitum | - | 18.3%
CC1CN(c2nc3c(cc2F)c(=O)c(C(=O)O)cn3-c2ccc(F)cc2F)CCN1 | - | MIC | - | - | Mycobacterium fortuitum | ATCC 6841 | 0.13 µg/mL
CCN1C(=O)C2(C3=C(CN2C)C(=O)c2ccccc2C3=O)c2ccccc21 | agar diffusion | zone | 50 µg/mL | - | Mycobacterium luteus | - | 18 mm
CC1CN(c2c(F)cc3c(=O)c(C(=O)O)cn(C4CC4)c3c2F)CCN1 | - | MIC99 | - | - | Mycobacterium smegmatis | KD1163 (GRYA+) | 0.036 µg/mL
COc1cc(Cc2cnc(N)nc2N)cc(OC)c1OC | - | MBC | - | - | Mycobacterium ulcerans | Isolate 5155 | >32 µg/mL
C#CC(CCCCC)OC(=O)CCCCCC | resazurin | MIC | - | 24 h | Mycobacterium bovis BCG | 1173P2 | 62.5 µg/mL
CNCC1CCN(c2c(F)cc3c(=O)c(C(=O)O)cn(C4CC4)c3c2OC)C1 | - | MIC | - | - | Mycobacterium fortuitum | ATCC 6841 | ≤0.03 µg/mL
COc1c(O)cc2oc(-c3ccccc3)cc(=O)c2c1O | - | MIC | - | - | Mycobacterium phlei | - | 15 µg/mL
CO[C@H]1/C=C/O[C@@]2(C)Oc3c(C)c(O)c4c(O)c(c5c(c4c3C2=O)NC2(CCN(CC(C)C)CC2)N=5)=NC(=O)/C(C)=C\C=C\[C@H](C)[C@H](O)[C@@H](C)[C@@H](O)[C@@H](C)[C@H](OC(C)=O)[C@@H]1C | - | MBC | - | - | Mycobacterium avium complex | 9141 | 16 µg/mL
Cc1ccc2c(c1)C1(C(=O)N2C)C2=C(CN1C)C(=O)c1ccccc1C2=O | agar diffusion | MIC | - | - | Mycobacterium luteus | - | 125 µg/mL
Cc1cc(NS(=O)(=O)c2ccc(NC(=O)N(C(C)C)C(C)C)cc2)no1 | broth dilution / absorbance | MIC100 | - | 21 d | Mycobacterium kansasii | 6509/96 clinical isolate | 500 µM
C#CCCOC(=O)CCCCCC | resazurin | MIC | - | 24 h | Mycobacterium bovis BCG | 1173P2 | 125 µg/mL
CC(C)N1CCN(c2cc3c(cc2F)c(=O)c(C(=O)O)cn3C2CC2)CC1 | - | MIC99 | - | - | Mycobacterium smegmatis | KD1990 (GYRA D95A) | 1.5 µg/mL
C#CCN1C(=O)C2(C3=C(C(=O)c4ccccc4C3=O)C3CCCN32)c2ccccc21 | agar diffusion | zone | 50 µg/mL | - | Mycobacterium luteus | - | 9 mm
NCC[C@H](O)C(=O)N[C@@H]1C[C@H](N)[C@@H](O[C@H]2O[C@H](CN)[C@@H](O)[C@H](O)[C@H]2O)[C@H](O)[C@H]1O[C@H]1O[C@H](CO)[C@@H](O)[C@H](N)[C@H]1O | resazurin | MIC90 | - | - | Mycobacterium abscessus | 103 | 24 µM
Cc1nn(-c2ccccc2)c2c1C(c1cn(-c3ccccc3)nc1-c1ccc(Cl)cc1)C1=C(NC(C)(c3cc(O)ccc3Cl)NC1=O)O2 | agar diffusion / agar | MIC | - | - | Mycobacterium phlei | NCIM 2240 | 100 µg/mL
CCC1CN(c2cc3c(cc2F)c(=O)c(C(=O)O)cn3C2CC2)CCN1 | - | MIC99 | - | - | Mycobacterium smegmatis | KD2012 (GYRA G89A) | 1 µg/mL
CCN1CCN(c2c(F)cc3c(=O)c(C(=O)O)cn(-c4ccc(F)cc4F)c3c2F)CC1 | - | MIC | - | - | Mycobacterium fortuitum | ATCC 6841 | 1 µg/mL
Nc1nc(N)c2c(n1)NC(c1ccc3c(c1)OCO3)CC(c1ccccc1)=N2 | MTT / broth dilution / absorbance | MIC | - | clinical isolate | Mycobacterium scrofulaceum | MNT1193 | >32 µg/mL
Cc1cc(NS(=O)(=O)c2ccc(NC(=O)N3CCC3)cc2)no1 | broth dilution / absorbance | MIC100 | - | 14 d | Mycobacterium kansasii | 6509/96 clinical isolate | 16 µM
Nc1nc(N)c2c(n1)NC(c1ccc(C(F)(F)F)cc1)CC(c1ccc3c(c1)OCO3)=N2 | MTT / broth dilution / absorbance | MIC | - | clinical isolate | Mycobacterium scrofulaceum | MNT1193 | 32 µg/mL
O=c1cc(-c2ccc(O)cc2)oc2cc(O)cc(O)c12 | - | MIC | - | - | Mycobacterium phlei | - | >100 µg/mL
C[C@@H]1CN(c2c(F)c(N)c3c(=O)c(C(=O)O)cn(C4CC4)c3c2F)C[C@H](C)N1 | broth dilution | MIC | - | - | Mycobacterium avium complex | 18 | 1 µg/mL
CN1CC2=C(C(=O)c3ccccc3C2=O)C12C(=O)N(Cc1ccccc1)c1ccccc12 | agar diffusion | zone | 50 µg/mL | - | Mycobacterium luteus | - | 9 mm
O=C(O)c1cn(C2CC2)c2c(F)c(N3CCNCC3)c(F)cc2c1=O | - | MIC99 | - | - | Mycobacterium smegmatis | KD1991 (GYRA D95Y) | 1.6 µg/mL
CCCCCCNC(=O)Nc1ccc(S(=O)(=O)Nc2cc(C)on2)cc1 | broth dilution / absorbance | MIC100 | - | 7 d | Mycobacterium kansasii | 6509/96 clinical isolate | 125 µM
O=C(O)C(Cc1ccc(I)cc1)Nc1nc(-c2ccc(Cl)c(Cl)c2)cs1 | broth dilution | MIC99 | - | - | Mycobacterium luteus | - | 50 µg/mL
O=c1c(O)c(-c2ccc(O)c(O)c2)oc2cc(O)cc(O)c12 | - | MIC | - | - | Mycobacterium phlei | - | >100 µg/mL
CCC1CN(c2c(F)cc3c(=O)c(C(=O)O)cn(C4CC4)c3c2OC)CCN1 | - | MIC99 | - | - | Mycobacterium smegmatis | KD2012 (GYRA G89A) | 0.28 µg/mL
C#CC(C)O | resazurin | MIC | - | 24 h | Mycobacterium bovis BCG | 1173P2 | 125 µg/mL
C[C@H]1COC2(CCN(C3=NC(=O)c4cc(C(F)(F)F)cc([N+](=O)[O-])c4S3(=O)=O)CC2)O1 | broth dilution / turbidity | MIC | - | - | Mycobacterium aurum | SB66 | >200 µg/mL
CCCCCCCCCCNC(=O)Nc1ccc(S(=O)(=O)Nc2cc(C)on2)cc1 | broth dilution / absorbance | MIC100 | - | 14 d | Mycobacterium kansasii | 6509/96 clinical isolate | 125 µM
CC(C)(C)c1ccc(/C=N/N=C(\N)c2ccccn2)cc1 | - | inhibition | 100 µM | - | Mycobacterium fortuitum | - | 5.8%
CN(C)[C@@H]1C(=O)C(C(N)=O)=C(O)[C@@]2(O)C(=O)C3=C(O)c4c(O)cccc4[C@@](C)(O)[C@H]3C[C@@H]12 | - | MIC50 | - | - | Mycoplasma hominis | 34 strains | 1 µg/mL
CC1CN(c2cc3c(cc2F)c(=O)c(C(=O)O)cn3C2CC2)CC(C)N1 | - | MIC99 | - | - | Mycobacterium smegmatis | KD2003 (GYRA D95G) | 3 µg/mL
Cc1nn(-c2ccccc2)c2c1C(c1cn(-c3ccccc3)nc1-c1ccc(Cl)cc1)C1=C(NC(C)(c3cc(O)c(I)cc3Cl)NC1=O)O2 | agar diffusion / agar | MIC | - | - | Mycobacterium phlei | NCIM 2240 | 50 µg/mL
CNCC1CCN(c2c(F)cc3c(=O)c(C(=O)O)cn(-c4ccc(F)cc4F)c3c2OC)C1 | - | MIC | - | - | Mycobacterium fortuitum | ATCC 6841 | 1 µg/mL
CN(C)c1cc(NC(=O)CNC(C)(C)C)c(O)c2c1C[C@H]1C[C@H]3[C@H](N(C)C)C(=O)C(C(N)=O)=C(O)[C@@]3(O)C(=O)C1=C2O | broth dilution | MIC | - | - | Mycobacterium massiliense | X71 | 4 µg/mL
C#CC(C)(C)O | resazurin | MIC | - | 24 h | Mycobacterium bovis BCG | 1173P2 | 125 µg/mL
COc1c(N2CCNC(C)C2)c(F)cc2c(=O)c(C(=O)O)cn(C3CC3)c12 | - | MIC | - | - | Mycobacterium fortuitum | ATCC 6841 | 0.06 µg/mL
COc1c(N2CCN(C(C)C)CC2)c(F)cc2c(=O)c(C(=O)O)cn(C3CC3)c12 | - | MIC99 | - | - | Mycobacterium smegmatis | KD1991 (GYRA D95Y) | 2.4 µg/mL
CN1CCN(c2c(F)cc3c(=O)c(C(=O)O)cn(C4CC4)c3c2Br)CC1 | - | MIC | - | - | Mycobacterium fortuitum | ATCC 6841 | 0.06 µg/mL
CC(C)(C)c1ccc(C=O)cc1 | - | inhibition | 1000 µM | - | Mycobacterium fortuitum | - | 5.5%
Cc1cc(NS(=O)(=O)c2ccc(NC(=O)C(=O)Nc3ccc(S(=O)(=O)Nc4cc(C)on4)cc3)cc2)no1 | broth dilution / absorbance | MIC100 | - | 14 d | Mycobacterium kansasii | 6509/96 clinical isolate | 8 µM
COc1cc(Cc2cnc(N)nc2N)cc(OC)c1Br | - | MIC | - | - | Mycobacterium ulcerans | Isolate 842 | 4 µg/mL
CCN1CCN(c2c(F)cc3c(=O)c(C(=O)O)cn(C4CC4)c3c2OC)CC1 | - | MIC | - | - | Mycobacterium fortuitum | ATCC 6841 | ≤0.03 µg/mL
C#CC(C)(CC)OC(C)=O | resazurin | MIC | - | 24 h | Mycobacterium bovis BCG | 1173P2 | 125 µg/mL

For reference, 6 entries again:

compound | method | measure | dose | setting | organism | strain or isolate | result
CO[C@H]1/C=C/O[C@@]2(C)Oc3c(C)c(O)c4c(O)c(c5c(c4c3C2=O)NC2(CCN(CC(C)C)CC2)N=5)=NC(=O)/C(C)=C\C=C\[C@H](C)[C@H](O)[C@@H](C)[C@@H](O)[C@@H](C)[C@H](OC(C)=O)[C@@H]1C | - | MBC | - | - | Mycobacterium avium complex | 9141 | 16 µg/mL
Cc1cc(-c2cc3c(cc2F)c(=O)c(C(=O)O)cn3C2CC2)cc(C)n1 | - | MIC50 | - | - | Mycoplasma hominis | 37 strains | 0.004 µg/mL
N/C(=N\N=C\c1cccc2ccccc12)c1ccccn1 | - | inhibition | 1000 µM | - | Mycobacterium fortuitum | - | 18.3%
Cc1nn(-c2ccccc2)c2c1C(c1cn(-c3ccccc3)nc1-c1ccc(Cl)cc1)C1=C(NC(C)(c3cc(O)ccc3Cl)NC1=O)O2 | agar diffusion / agar | MIC | - | - | Mycobacterium phlei | NCIM 2240 | 100 µg/mL
Cc1nn(-c2ccccc2)c2c1C(c1cn(-c3ccccc3)nc1-c1ccc(Cl)cc1)C1=C(NC(C)(c3cc(O)c(Cl)c(O)c3)NC1=O)O2 | agar diffusion / agar | zone | 0.1 mg/mL | - | Mycobacterium phlei | NCIM 2240 | 2.5 mm
CN1CC2=C(C(=O)c3ccccc3C2=O)C12C(=O)Nc1ccc(Cl)cc12 | agar diffusion | zone | 50 µg/mL | - | Mycobacterium luteus | - | 12 mm